Where a name gives a salt, the structure may show the parent alone. Read-outs that look alike come from different tables or passages of the source.
Key:
Type in all cases: cell-based
[1] = tested on: SARS-CoV-2
[2] = tested on: SARS-CoV-2; remark: listed apart in the source
[3] = tested on: SARS-CoV-2; remark: listed apart in the source
[4] = selectivity index, uninfected HeLa-ACE2 CC50 / SARS-CoV-2 EC50
[5] = selectivity index, uninfected Calu-3 CC50 / SARS-CoV-2 EC50

| Structure (SMILES) | HeLa-ACE2 SI [1] | Calu-3 SI ([2]; ratio CC50 / EC50) | TOA:HeLa-ACE2 EC50 Ratio ([3]; TOA EC50 / HeLa-ACE2 EC50) | HeLa-ACE2 SI [1, 4] | Calu-3 SI [2, 5] | TOA:HeLa-ACE2 EC50 Ratio [3] |
| --- | --- | --- | --- | --- | --- | --- |
| C[C@H]1O[C@@H](O[C@H]2[C@@H](O)C[C@H](O[C@H]3[C@@H](O)C[C@H](O[C@H]4CC[C@@]5(C)[C@H](CC[C@@H]6[C@@H]5C[C@@H](O)[C@]5(C)[C@@H](C7=CC(=O)OC7)CC[C@]65O)C4)O[C@@H]3C)O[C@@H]2C)C[C@H](O)[C@@H]1O [Digoxin] | 0.72 | > 29.80 | 4.769 |  |  |  |
| Nc1ncnc2c1nc(Cl)n2[C@@H]1O[C@H](CO)[C@@H](O)[C@H]1O [8-Chloroadenosine] |  |  | 1.151 | > 12.80 | > 5.62 |  |
| COC(=O)C1=C(C)NC(C)=C(C(=O)OCCN2CCN(C(c3ccccc3)c3ccccc3)CC2)C1c1cccc([N+](=O)[O-])c1 (stereo not drawn) [Manidipine (Manyper)] |  |  | 1.120 | > 2.48 | > 5.45 |  |
| COc1ccc2c(c1)[C@]1(C[C@H]1c1ccc3c(/C=C/c4ccc(CN5C[C@@H](C)O[C@@H](C)C5)cc4)n[nH]c3c1)C(=O)N2 [CFI-400945] |  |  | 0.653 | < 1.02 | > 5.88 |  |
| COc1ccc(C[C@H](N)C(=O)N[C@H]2[C@@H](O)[C@H](n3cnc4c(N(C)C)ncnc43)O[C@@H]2CO)cc1 [Puromycin - cytotoxicity control] |  |  | 0.659 | 1.37 | 1.44 |  |
| Cc1c(O)cccc1C(=O)N[C@@H](CSc1ccccc1)[C@H](O)CN1C[C@H]2CCCC[C@H]2C[C@H]1C(=O)NC(C)(C)C [Nelfinavir mesylate] |  |  |  | > 2.08 | > 26.07 | 0.965 |
| CC(C)(C)Cn1c(N)nc2ccc(-c3[nH]c(C(C)(C)C)nc3-c3ccc(F)cc3)nc21 [Ralimetinib mesylate/LY2228820, Ralimetinib mesylate] |  |  | 0.420 | 14.60 | 3.60 |  |
| CNC(=O)c1cc(Oc2ccc(NC(=O)Nc3ccc(Cl)c(C(F)(F)F)c3)cc2)ccn1 [Sorafenib] |  |  |  | > 1.52 | < 1.02 | 0.619 |
| C=CC(=O)Nc1cc(Nc2nccc(-c3cn(C)c4ccccc34)n2)c(OC)cc1N(C)CCN(C)C [AZD-9291/Osimertinib] |  |  | 8.157 | > 18.79 | < 1.07 |  |
| COc1cc2c(Nc3ccc(Cl)c(Cl)c3F)ncnc2cc1OC[C@@H]1C[C@@H]2CN(C)C[C@@H]2C1 [Tesevatinib, XL647, Kadmon Corporation] |  |  |  | > 8.46 | 1.06 | 3.123 |
| NC1(c2ccc(-c3nc4ccn5c(=O)[nH]nc5c4cc3-c3ccccc3)cc2)CCC1 [MK-2206] |  |  |  | > 20.63 | < 1.78 | 8.511 |
| O=c1nc(NO)ccn1[C@@H]1O[C@H](CO)[C@@H](O)[C@H]1O [N-hydroxycytidine] |  |  | 1.961 | > 18.13 | 37.50 |  |
